For one compound, Activity results are on record in ChEMBL document CHEMBL1275403 (J Med Chem, 2010).

Structures are written as SMILES.

The series is described as follows: Cytotoxicity against mouse ScGT1 cells assessed as cell viability at 1 uM after 5 days by calcein-AM assay. It is filed as cell-based. To be noted: scgt1, 120 h. In outline: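 ScGT1 cells in DMEM with 10% FBS were plated at 25000 cells/well. Compounds were dissolved in DMSO, diluted in PBS and added at 10 nM–10 μM. Cells were incubated 5 days at 37 °C, 5% CO2. Viability was read by calcein-AM fluorescence as average percent viable cells versus untreated control. Values are mean of three experiments with SD.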

Consider `O=C1C=C(NCCCNc2c3c(nc4ccccc24)CCCC3)C(=O)C=C1NCCCNc1c2c(nc3ccccc13)CCCC2`, for which the Activity was 104%.
